A mixed list of measured activities; the numbers were collected in NIAID ChemDB.

Shared fields: enzyme or target tests; species: HIV-1; target: Protease

Conditions beyond the fields shown may differ between rows. Blank or dashed fields: not listed here. Percent inhibition refers to the dose given; in toxicity tests it is the harm to the cells. Fold resistance: result on the changed form divided by that on wild type. ICn is the concentration giving n% inhibition.

compound	method	read-out	tested at	mutations	value
COC(=O)c1ccc(CN2[C@H](COc3ccccc3)[C@H](O)[C@@H](O)[C@@H](COc3ccccc3)N(Cc3ccc(C(=O)OC)cc3)S2(=O)=O)cc1	-	fold resistance	-	PR-G48V L90M	1.13
CC(C)(C)OC(=O)N[C@@H](Cc1ccccc1)C(O)C(O)[C@H](Cc1ccccc1)NC(=O)OC(C)(C)C	fluorescence	IC50	-	-	>0.01 µM
O=C(N[C@@H](Cc1ccccc1)[C@H](Cc1ccccc1)n1cc(CN2CCN(c3cnccn3)CC2)nn1)OC1CCCC1	fluorescence	IC50	-	-	>5 µM
CNC(=O)[C@@H](NC(=O)[C@H](OCc1ccccc1)[C@H](O)[C@@H](O)[C@@H](OCc1ccccc1)C(=O)N[C@H]1c2ccccc2C[C@H]1O)C(C)C	-	fold resistance	-	PR-I84V L90M	3.57
Cc1ccc(Cl)cc1N1CCN(Cc2cn([C@@H](Cc3ccccc3)[C@H](Cc3ccccc3)NC(=O)Oc3ccccc3)nn2)CC1	fluorescence	IC50	-	-	>5 µM
CC(C)(C)OC(=O)N[C@@H](Cc1ccccc1)[C@@H](O)C[C@@H](Cc1ccc(OCCN2CCOCC2)cc1)C(=O)N[C@H]1c2ccccc2C[C@H]1O	fluorescence	fold resistance	-	PR-R8Q	2.75
CC(C)[C@H](NC(=O)OCc1ccccn1)C(=O)N[C@@H](Cc1ccccc1)[C@@H](O)[C@H](O)[C@H](Cc1ccccc1)NC(=O)[C@@H](NC(=O)OCc1ccccn1)C(C)C	fluorescence	inhibition	0.001 µM	-	81%
O=S1(=O)N(Cc2cccc(I)c2)[C@H](COc2ccccc2)[C@H](O)[C@@H](O)[C@@H](COc2ccccc2)N1Cc1cccc(I)c1	-	fold resistance	-	PR-G48V L90M	6.58
Cc1cc(SC2=C(O)C[C@@](CCc3ccc(O)cc3)(C(C)C)OC2=O)c(C(C)(C)C)cc1CO	HPLC / absorbance	fold resistance	-	PR-V82F	1.1
O=C(N[C@@H](Cc1ccccc1)[C@H](Cc1ccccc1)n1cc(CN2CCC(O)(c3ccc(Cl)cc3)CC2)nn1)OC1CCCC1	fluorescence	IC50	-	-	>5 µM
CC(C)[C@H](NC(=O)OCc1ccccc1)C(=O)N[C@@H](Cc1ccccc1)[C@H](O)[C@H](Cc1ccccc1)NC(=O)[C@@H](NC(=O)c1cccnc1)C(C)C	fluorescence	inhibition	0.0025 µM	-	59%
CC(C)(C)OC(=O)N[C@@H](Cc1ccccc1)[C@H](O)CNC[C@@H](O)[C@H](Cc1ccc(OCC(=O)N2CCOCC2)cc1)NC(=O)OC(C)(C)C	HPLC	fold resistance	-	PR-A71T	1.74
O=S1(=O)N(Cc2cccc(-c3cccs3)c2)[C@H](COc2ccccc2)[C@H](O)[C@@H](O)[C@@H](COc2ccccc2)N1Cc1cccc(-c2cccs2)c1	-	fold resistance	-	PR-G48V L90M	8.18
CC(C)[C@H](NC(=O)OCc1cccnc1)C(=O)N[C@@H](Cc1ccccc1)[C@@H](O)[C@@H](O)[C@H](Cc1ccccc1)NC(=O)OC(C)(C)C	fluorescence	IC50	-	-	>0.001 µM
CC(C)(C)OC(=O)N[C@@H](Cc1ccccc1)[C@H](O)[C@H](O)[C@H](Cc1ccccc1)NC(=O)OC(C)(C)C	fluorescence	fold resistance	-	PR-R8Q	1.68
Cc1cc(SC2=C(O)C[C@@](CCc3ccc(N)cc3)(C(C)C)OC2=O)c(C(C)(C)C)cc1CO	HPLC / absorbance	fold resistance	-	PR-G48V L90M	0.8
CC(C)CN(C[C@@H](O)[C@H](Cc1ccccc1)NC(=O)[C@H](CC(N)=O)NC(=O)c1ccc2ccccc2n1)C(=O)NC(C)(C)C	HPLC	fold resistance	-	PR-A71T	1
O=C(N[C@@H](Cc1ccccc1)[C@H](Cc1ccccc1)n1cc(CN2CCN(C(=O)OCc3ccccc3)CC2)nn1)OC1CCCC1	fluorescence	IC50	-	-	>5 µM
CC(C)[C@H](NC(=O)OCc1ccccc1)C(=O)N[C@@H](Cc1ccccc1)[C@H](O)[C@H](Cc1ccccc1)NC(=O)[C@@H](NC(=O)OCC1CCCN(C)C1)C(C)C	fluorescence	IC50	-	-	<0.05 µM
CC(C)[C@H](NC(=O)N(C)Cc1ccccn1)C(=O)N[C@@H](Cc1ccccc1)[C@H](O)[C@H](O)[C@H](Cc1ccccc1)NC(=O)[C@@H](NC(=O)N(C)Cc1ccccn1)C(C)C	fluorescence	fold resistance	-	PR-M46I	1.43
CC(C)[C@H](NC(=O)Cc1ccccn1)C(=O)N[C@@H](Cc1ccccc1)[C@@H](O)[C@H](O)[C@H](Cc1ccccc1)NC(=O)[C@@H](NC(=O)Cc1ccccn1)C(C)C	fluorescence	IC50	-	-	<0.005 µM
C/C(=N\O)c1cccc(CN2[C@H](COc3ccccc3)[C@H](O)[C@@H](O)[C@@H](COc3ccccc3)N(Cc3cccc(/C(C)=N/O)c3)S2(=O)=O)c1	-	fold resistance	-	PR-I84V	13.2
CC(C)[C@H](NC(=O)OCc1ccncc1)C(=O)N[C@@H](Cc1ccccc1)[C@H](O)[C@@H](O)[C@H](Cc1ccccc1)NC(=O)[C@@H](NC(=O)OCc1ccncc1)C(C)C	fluorescence	inhibition	0.002 µM	-	44%
O=C(N[C@@H](Cc1ccccc1)[C@H](Cc1ccccc1)n1cc(CN2CCC(c3ccccc3)CC2)nn1)OC1CCCC1	fluorescence	IC50	-	-	<5 µM

A second listing of 3 rows from above:

compound	method	read-out	tested at	mutations	value
CC(C)[C@H](NC(=O)N(C)Cc1ccccn1)C(=O)N[C@@H](Cc1ccccc1)[C@H](O)[C@H](O)[C@H](Cc1ccccc1)NC(=O)[C@@H](NC(=O)N(C)Cc1ccccn1)C(C)C	fluorescence	fold resistance	-	PR-M46I	1.43
CC(C)(C)OC(=O)N[C@@H](Cc1ccccc1)[C@@H](O)C[C@@H](Cc1ccc(OCCN2CCOCC2)cc1)C(=O)N[C@H]1c2ccccc2C[C@H]1O	fluorescence	fold resistance	-	PR-R8Q	2.75
CC(C)[C@H](NC(=O)OCc1ccccc1)C(=O)N[C@@H](Cc1ccccc1)[C@H](O)[C@H](Cc1ccccc1)NC(=O)[C@@H](NC(=O)OCC1CCCN(C)C1)C(C)C	fluorescence	IC50	-	-	<0.05 µM